Measured values reported in US20140050778A1, “NUCLEIC ACID BINDING COMPOUNDS, METHODS OF MAKING, AND USE THEREOF” (UNIVERSITY OF ROCHESTER, priority 2010, published 2014).

Test system: (CUG)10 RNA (SEQ ID NO: 3)
Experiment: SPR binding to immobilized biotinylated RNA
Details: binding to (CUG)10
Procedure: SPR binding measurements were performed on a Biacore-X instrument (Biacore, Inc., Uppsala, Sweden) with two flow channels (FC1 and FC2). 5′-Biotinylated-RNA sequences, with a C6 linker separating the biotin label from the RNA (Integrated DNA Technologies Inc.) were immobilized on streptavidin (Rockland Immunochemicals) functionalized carboxylmethyl dextran coated sensor chips (CM5, G.E. Healthcare) using EDC/NHS (Advanced ChemTech) coupling chemistry. Filtered (0.2μ), degassed and autoclaved HBS-N buffer (0.01M Hepes, pH=7.4, 0.15 M NaCl) was employed as sample and as running buffer for all SPR experiments. A typical protocol for an experiment is as follows: A CM5 sensor chip was allowed to equilibrate to room temperature and then docked into the instrument. […] Binding measurements were performed by flowing various concentrations of the compounds to be analyzed over the immobilized RNA and recording the reference-subtracted (FC2−FC1) sensorgrams. […]
This technique allows the association and dissociation rates (ka and kd), equilibrium binding constants (KD), and the binding stoichiometry (n) to be measured in a label-free format (Liu and Wilson, “Quantitative Analysis of Small Molecule-nucleic Acid Interactions with a Biosensor Surface and Surface Plasmon Resonance Detection,” Methods Mol. Biol. 613:1-23 (2010), which is hereby incorporated by reference in its entirety).

| Compound | Hill coefficient |
| --- | --- |
| CCc1nc2cc3ccccc3cc2cc1C(=O)N1CCC[C@H]1C(=O)N[C@@H](C/C=C\C[C@H](NC(=O)[C@@H]1CCCN1C(=O)c1cc2cc3ccccc3cc2nc1CC)C(=O)N[C@@H](CCCCN)C(=O)NCCCN)C(=O)N[C@@H](CCCCN)C(=O)NCCCN [Compound 4] | 1.9 |
| CCc1nc2cc3ccccc3cc2cc1C(=O)N1CCC[C@H]1C(=O)N[C@@H](C/C=C/C[C@H](NC(=O)[C@@H]1CCCN1C(=O)c1cc2cc3ccccc3cc2nc1CC)C(=O)N[C@@H](CCCCN)C(=O)NCCCN)C(=O)N[C@@H](CCCCN)C(=O)NCCCN [Compound 5] | 1.5 |
